Anti-infective test results gathered from many reports (values: NIAID ChemDB through PubChem).

All rows: toxicity to cultured cells; cell line: MCF-7; measure: CC50

Conditions beyond the fields shown may differ between rows. CCn: concentration that lowers growth or viability of the cells by n%. An empty or dashed field is not shown.

| structure | read by | value |
|---|---|---|
| CC(=O)O[C@H]1C(=O)[C@@]2(C)[C@H]([C@H](OC(=O)c3ccccc3)[C@]3(O)C[C@H](OC(=O)[C@H](O)[C@@H](NC(=O)c4ccccc4)c4ccccc4)C(C)=C1C3(C)C)[C@]1(OC(C)=O)CO[C@@H]1C[C@@H]2O | MTT | 0.0048 µg/mL |
| CC(=O)O[C@@H](/C=C(\C)C(=O)O)C[C@@H](C)[C@H]1CC[C@@]2(C)C3CC[C@H]4C(C)(C)C(=O)CC[C@]4(C)C3=CC[C@]12C | - | >40 µM |
| CCCCC[C@@H]1OC(=O)CNC(=O)[C@H]([C@@H](C)CC)NC(=O)[C@@H]2CCCN2C(=O)[C@H]([C@@H](C)CC)OC(=O)[C@H](Cc2ccccc2)N(C)C(=O)[C@H](C(C)C)NC(=O)C1(C)C | MTT | 73 µM |
| O=c1c2cc(O)ccc2oc2cc(O)cc(O)c12 | sulforhodamine / absorbance | >50 µM |
| COC(=O)/C(C)=C/C=C/[C@@H](C)[C@H]1CC[C@@]2(C)C3CC[C@H]4C(C)(C)C(=O)CC[C@]4(C)[C@@]3(O)CC[C@]12C | - | >40 µM |
| C/C(=C\C=C\C(C)[C@H]1CC[C@@]2(C)[C@@H]3CC[C@H]4C(C)(C)C(=O)CC[C@]4(C)C3=CC[C@]12C)C(=O)O | sulforhodamine / absorbance | >50 µM |
| CC(=O)OC1C(COC(=O)/C=C/c2ccc(O)cc2)OC(COC(=O)/C=C/c2ccc(O)cc2)(OC2OC(COC(=O)/C=C/c3ccc(O)cc3)[C@@H](OC(C)=O)[C@H](O)[C@H]2O)C1OC(=O)/C=C/c1ccc(O)cc1 | MTT | 2.87 µg/mL |
| O=c1[nH]c(=O)n([C@H]2C[C@H](O)[C@@H](CO)O2)cc1C12B3B4B5B6B(B3B1B42)B1B5C61 | - | >100 µM |
| COc1cc(-c2ccccc2)c(OC)c(OC)c1O | sulforhodamine / absorbance | >50 µM |
| C/C=C/c1ccc2c(c1)[C@H](C)[C@@H](c1ccc(OC)c(OC)c1)O2 | sulforhodamine / absorbance | 39.5 µM |
| C/C(=C\CC[C@@H](C)C1CC[C@@]2(C)[C@@H]3CC[C@H]4C(C)(C)C(=O)CC[C@]4(C)[C@@]3(O)CC[C@]12C)C(=O)O | - | >40 µM |
| N#CC(O)c1ccccc1 | MTT | 2010 µg/mL |
| CC(C)(O)c1ccc2c(c1)CC[C@H]1[C@](C)(C(=O)O)CCC[C@]21C | absorbance | 35.14 µg/mL |
| Cc1cc(NS(=O)(=O)c2ccc(N3C(=O)CSC3c3c(F)cccc3F)cc2)no1 | MTT | >100 µg/mL |
| COc1cc(O)cc2oc3cc(O)c(O)cc3c(=O)c12 | sulforhodamine / absorbance | >50 µM |
| CC[C@@]1(O)C(=O)OCc2c1cc1n(c2=O)Cc2cc3ccccc3nc2-1 | - | 0.08 µM |
| C[C@H]1[C@H](O)C(=O)CC2[C@]3(C)CC[C@@]4(C)C5CC(C)(C)CC[C@]5(C)CC[C@]4(C)C3CC[C@@]21C | sulforhodamine / absorbance | >50 µM |
| C#CCCC[C@@H]1OC(=O)CNC(=O)[C@H]([C@@H](C)CC)NC(=O)[C@@H]2CCCN2C(=O)[C@H]([C@@H](C)CC)OC(=O)[C@H](Cc2ccccc2)NC(=O)[C@H](C(C)C)NC(=O)C1(C)C | MTT | >100 µM |

For reference, 2 entries again:

structure	read by	value
CC(=O)O[C@@H](/C=C(\C)C(=O)O)C[C@@H](C)[C@H]1CC[C@@]2(C)C3CC[C@H]4C(C)(C)C(=O)CC[C@]4(C)C3=CC[C@]12C	-	>40 µM
CC(=O)OC1C(COC(=O)/C=C/c2ccc(O)cc2)OC(COC(=O)/C=C/c2ccc(O)cc2)(OC2OC(COC(=O)/C=C/c3ccc(O)cc3)[C@@H](OC(C)=O)[C@H](O)[C@H]2O)C1OC(=O)/C=C/c1ccc(O)cc1	MTT	2.87 µg/mL